A mixed list of measured activities; the numbers were collected in NIAID ChemDB.

Common to all: whole-cell or culture tests; agent: Herpes simplex virus 2; cells: VERO; endpoint: inhibition

Blank or dashed fields: not listed here. "inactive" is the filed call at that dose; no cut-off is given. Percent inhibition refers to the dose given; in toxicity tests it is the harm to the cells. Conditions beyond the fields shown may differ between rows.

smiles	strain	read by	dose	result
CCCCCCCCCCCCCCCCCCCCCC(=O)OCC(CO[C@@H]1O[C@H](CO)[C@@H](O)[C@H](O)[C@H]1O)OC(=O)CCCCCCCCCCCCC	186	plaque count	50 µg/mL	20%
CC(C)=CCC[C@@H](COS(=O)(=O)O)C1CCC2C3CC[C@H]4C[C@H](OS(=O)(=O)O)[C@@H](O)CC4(C)C3CCC21C	G	plaque count	40 µg/mL	98.2%
CCCCCCCC/C=C\CCCCCCCC(=O)OCC(CO[C@@H]1O[C@H](CO)[C@@H](O)[C@H](O)[C@H]1O)OC(=O)CCCCCCC/C=C\CCCCCCCC	186	plaque count	50 µg/mL	25%
CCC(=O)C(CCCCCCOc1ccc(OC)cc1Cl)C(=O)CC	333	plaque count	4 µg/mL	66%
CCCCCCCCCCCCCCCCCC(=O)OCC(CO[C@@H]1O[C@H](CO)[C@@H](O)[C@H](O)[C@H]1O)OC(=O)CCCCCCCCCCC	186	plaque count	50 µg/mL	inactive
O=c1[nH]c(=O)n([C@H]2C[C@H](O)[C@@H](CO)O2)cc1/C=C/Br	K979	cytopathic effect	30 µg/mL	≥25%
Cc1cn([C@@H]2O[C@H](CO)[C@@H](O)[C@@H]2F)c(=O)[nH]c1=O	G	virus yield	5 µM	98%
C/C=C/c1cn([C@@H]2O[C@H](CO)[C@@H](O)[C@@H]2O)c(=O)[nH]c1=O	B4327 UR2	plaque count	250 µM	10%
CC(C)CCCC(COS(=O)(=O)O)C1CCC2C3CC=C4C[C@H](O)[C@@H](OS(=O)(=O)O)CC4(C)C3CCC12C	G	plaque count	10 µg/mL	16.6%
S=C(NCCc1ccccc1)Nc1ccc(Oc2ccc(NC(=S)NCCc3ccccc3)cc2)cc1		plaque count	10 µM	<50%
O=c1ccn([C@@H]2O[C@H](CO)[C@@H](O)[C@@H]2F)c(=O)[nH]1	G	virus yield	0.5 µM	87%
CC/C=C/C/C=C/C/C=C/CCCCCCCC(=O)OCC(CO[C@@H]1O[C@H](CO)[C@@H](O)[C@H](O)[C@H]1O)OC(=O)CCCCCCC/C=C\C/C=C\CCCCC	186	plaque count	50 µg/mL	70%
C/C=C/c1cn([C@H]2C[C@H](O)[C@@H](CO)O2)c(=O)[nH]c1=O	B4327 UR2	plaque count	100 µM	<0%
Nc1ccn([C@H]2O[C@@H](CO)[C@H](O)[C@H]2F)c(=O)n1	G	virus yield	1 µM	58%
CC(C)=CCCC(CO)C1CCC2C3CC=C4C[C@H](O)[C@@H](O)CC4(C)C3CCC12C	G	plaque count	20 µg/mL	51.5%
CC/C=C/C/C=C/C/C=C/CCCCCCCC(=O)OC[C@H](CO[C@@H]1O[C@H](CO)[C@@H](O)[C@H](O)[C@H]1O)OC(=O)CCCCCCC/C=C/C/C=C/C/C=C/CC	186	plaque count	50 µg/mL	100%
CC(C)=CCCC(COS(=O)(=O)O)C1CCC2C3CC=C4C[C@H](O)[C@@H](OS(=O)(=O)O)CC4(C)C3CCC12C	G	plaque count	40 µg/mL	21.4%
Cc1cn(N2C[C@H](CO)[C@H]2CO)c(=O)[nH]c1=O		plaque count	10 µg/mL	0%
CSC(=NCCc1ccccc1)Nc1ccc(Oc2ccc(/C=C(/NCCc3ccccc3)SC)cc2)cc1		plaque count	10 µM	>50%
Nc1ncnc2c1ncn2[C@@H]1O[C@H](CO)[C@@H](O)[C@@H]1O	333	plaque count	25 µM	21.7%
Cc1cn([C@@H]2O[C@H](CO)[C@@H](O)[C@@H]2F)c(=O)[nH]c1=O	K979	cytopathic effect	0.3 µg/mL	≥25%
CN1C(=O)NC(=O)N([C@H]2C[C@H](O)[C@@H](CO)O2)C1(C)C	35D	plaque count	25 µM	0%
O=c1[nH]c(=O)n([C@@H]2O[C@H](CO)[C@@H](O)[C@@H]2F)cc1I	K979	cytopathic effect	0.1 µg/mL	≥25%
NC(=Nc1ccc(Cc2ccc(N=C(N)c3ccccc3)cc2)cc1)c1ccccc1		plaque count	1 µM	<50%

Repeating the first 3 entries:

smiles,strain,read by,dose,result
CCCCCCCCCCCCCCCCCCCCCC(=O)OCC(CO[C@@H]1O[C@H](CO)[C@@H](O)[C@H](O)[C@H]1O)OC(=O)CCCCCCCCCCCCC,186,plaque count,50 µg/mL,20%
CC(C)=CCC[C@@H](COS(=O)(=O)O)C1CCC2C3CC[C@H]4C[C@H](OS(=O)(=O)O)[C@@H](O)CC4(C)C3CCC21C,G,plaque count,40 µg/mL,98.2%
CCCCCCCC/C=C\CCCCCCCC(=O)OCC(CO[C@@H]1O[C@H](CO)[C@@H](O)[C@H](O)[C@H]1O)OC(=O)CCCCCCC/C=C\CCCCCCCC,186,plaque count,50 µg/mL,25%